Measured values from several laboratories, pooled; numbers as filed in NIAID ChemDB.

All rows: whole-cell or culture tests; agent: Human cytomegalovirus; read by: plaque count; endpoint: EC50

Two numbers with a dash give a range or band. ECn: concentration that inhibits the pathogen or its effect by n%. Neighbouring rows are from separate reports. An empty or dashed field is not shown.

| compound | cell line | strain or isolate | value |
|---|---|---|---|
| Nc1cccc2c1C(=O)N(C13CC4CC(CC(C4)C1)C3)C2=O | HEL | DAVIS | >0.8 µg/mL |
| CCCCCCCCCCCCCCCCCCCCCCCCOP(=O)(O)CO[C@H](CO)Cn1ccc(N)nc1=O | HFF | AD169 | 0.06 µM |
| Nc1nc(NC2CC2)c2ncn(/C=C3/C[C@@H]3CO)c2n1 | HFF | AD169 | 1.9 µM |
| CCOP(=O)(O)CCC(CO)OCn1cnc2c(=O)[nH]c(N)nc21 | MRC-5 | C8805 (ganciclovir-resistant) | 320 µg/mL |
| O=C1c2ccccc2C(=O)N1C1C2CC3CC(C2)CC1C3 | HEL | DAVIS | >4 µg/mL |
| C#CCNc1nc(N)nc2c1ncn2/C=C1/C[C@@H]1CO | HFF | AD169 | 2.6 µM |
| O=C1c2ccccc2C(=O)N1C12CC3CC(CC(C(=O)O)(C3)C1)C2 | HEL | AD169 | >100 µg/mL |
| CCC(C)Nc1ccc(Oc2cccc(O)c2)cc1 |  | AD169 | 32.5 µM |
| Nc1nc2c(ncn2COC(CO)COP(=O)(O)O)c(=O)[nH]1 | MRC-5 | DAVIS | 6.2 µM |
| Nc1nc2c(ncn2C[C@@H]2CC[C@@H](P(=O)(O)O)O2)c(=O)[nH]1 | WI-38 |  | 0.1–1 µg/mL |
| CCCCCCCC/C=C\CCCCCCCOCCOP1(=O)CO[C@@H](Cn2ccc(N)nc2=O)CO1 | HFF | AD169 | 0.0015 µM |
| Nc1nc2c(ncn2COC(CO)CCP(=O)([O-])O)c(=O)[nH]1 | MRC-5 | C8704 | 15 µg/mL |
| O=C(NCc1ccc(Cl)cc1)c1c[nH]c2c(F)cccc2c1=O |  | LYS | 12 µM |
| Oc1ccc(Sc2ccc(NC3CCCCCC3)cc2)cc1 |  | AD169 | 12.9 µM |
| O=C1c2ccccc2C(=O)N1CC12CC3CC(CC(C3)C1)C2 | HEL | DAVIS | >100 µg/mL |
| COc1ccc(Oc2ccc(NC3CCCCCC3)cc2)cc1 |  | AD169 | 30.5 µM |
| Nc1nc2c(ncn2COC(CO)CO)c(=O)[nH]1 | HFF | C4 (BDCRB- maribavir-resistant) | 12 µM |
| Nc1ncnc2c1ncn2C=C1CC1CO | KB | AD169 | 2 µM |
| Nc1nc2c(ncn2/C=C2/CC2(CO)CO)c(=O)[nH]1 | HFF | AD169 | 1.2 µM |
| CN(C)c1cccc2c(S(=O)(=O)Nc3ccc(NC(=O)C(C)(C)CO)cc3)cccc12 |  | 36 isolates | 1 µM |
| Nc1nc(NCCO)c2ncn(/C=C3/C[C@@H]3CO)c2n1 | HFF | AD169 | >72 µM |
| O=C(NCc1ccc(Cl)cc1)c1c[nH]c2c(F)cc(CCCO)cc2c1=O |  | DAVIS | 1.2 µM |
| C[C@@H]1O[C@@H](n2c(Cl)nc3cc(Cl)c(Cl)cc32)[C@H](O)[C@@H]1O | HFF | D10 (BDCRB- and maribavir-resistant) | 0.54 µM |
| Nc1nc2c(ncn2COC2COP(=O)(O)OC2)c(=O)[nH]1 | MRC-5 | DAVIS | 6.1 µM |
| CCC(C)Nc1ccc(Oc2ccc(OC)cc2)cc1 |  | AD169 | 58 µM |
| O=C1c2ccccc2C(=O)N1CC1C2CC3CC(C2)CC1C3 | HEL | DAVIS | >20 µg/mL |
| Nc1nc(NCc2ccccc2)c2ncn(/C=C3/C[C@@H]3CO)c2n1 | HFF | AD169 | >310 µM |
| CCCCCCCCCCCCCCCCCCCCCCOP1(=O)CO[C@@H](Cn2ccc(N)nc2=O)CO1 | HFF | AD169 | 0.041 µM |
| CN(C)c1cccc2c(S(=O)(=O)Nc3ccc(NC(=O)C(C)(C)CO)cc3)cccc12 |  | AD169 | 0.44 µM |
| CN1N=C(N)c2cn([C@@H]3O[C@H](COP(=O)(O)O)[C@@H](O)[C@H]3O)c3ncnc1c23 | HFF |  | 0.8 µM |
| CCN(C)c1ccc(Oc2ccc(O)cc2)cc1 | HFF | AD169 | 0.4–0.6 µM |
| CCCCCCCCCCCCCCCCOP1(=O)CO[C@@H](Cn2ccc(N)nc2=O)CO1 | HFF | AD169 | 0.038 µM |
| Nc1ccn(C[C@@H](CO)OCP(=O)(O)O)c(=O)n1 | WI-38 |  | 10–100 µg/mL |
| O=C1c2ccccc2[C@@]2(O)C3C4C[C@H]5CC(C[C@H]3C5)C4N12 | HEL | AD169 | 13 µg/mL |
| OC[C@@H]1O[C@@H](n2c(Cl)nc3cc(Cl)c(Cl)cc32)[C@H](O)[C@@H]1O | HFF | D10 (BDCRB- and maribavir-resistant) | 56 µM |
| CN1N=C(N)c2cn([C@@H]3O[C@H](CO)[C@@H](O)[C@H]3O)c3nc(-c4ccccc4)nc1c23 | HFF |  | 32 µM |
| N#CCCC12CC3CC(C1)CC(N1C(=O)c4ccccc4C1=O)(C3)C2 | HEL | AD169 | >100 µg/mL |
| CCCCCCCCOCCCOP(=O)(O)CO[C@H](CO)Cn1ccc(N)nc1=O | HFF | AD169 | >1 µM |
| O=C(NCc1ccc(Cl)cc1)c1c[nH]c2ccc(CCCO)cc2c1=O |  | 759rD100 | 0.3 µM |
| Cc1nc2c3c(cn([C@@H]4O[C@H](CO)[C@@H](O)[C@H]4O)c3n1)C(N)=NN2C | HFF |  | >100 µM |
| Nc1nc(OCC2CC2)c2ncn(/C=C3/C[C@@H]3CO)c2n1 | HFF | AD169 | 1.7 µM |
| CCOP(=O)([O-])CCC(CO)OCn1cnc2c(=O)[nH]c(N)nc21 | MRC-5 | C8704 | 32 µg/mL |
| C=CCOc1nc(N)nc2c1ncn2/C=C1/C[C@@H]1CO | HFF | TOWNE | 1.2 µM |
| COC(=O)C12CC3CC(C1)CC(N1C(=O)c4ccccc4C1=O)(C3)C2 | HEL | DAVIS | >20 µg/mL |
| OC[C@H]1O[C@@H](n2c(Cl)nc3cc(Cl)c(Cl)cc32)[C@H](O)[C@@H]1O | HFF |  | 2.9 µM |
| CCCCCCCCCCCCCCCCCCCCOP1(=O)CO[C@@H](Cn2ccc(N)nc2=O)CO1 | HFF | AD169 | 0.014 µM |
| NC12CC3CC(CC(C3)C1C(=O)c1ccccc1C(=O)O)C2 | HEL | AD169 | >100 µg/mL |
| CCCCCCCCCCCCCCCCCCCCOCCCOP(=O)(O)CO[C@H](CO)Cn1ccc(N)nc1=O | HFF | AD169 | 0.034 µM |
| c1ccc(Sc2ccc(NC3CCCCCC3)cc2)cc1 |  | AD169 | 43 µM |
| O[C@@H]1[C@H](O)[C@H](O)CO[C@H]1n1c(Br)nc2cc(Cl)c(Cl)cc21 | MRC-5 | 1117/R (K513N) | 1.2 µM |

A second listing of 7 rows from above:

compound,cell line,strain or isolate,value
CCCCCCCCOCCCOP(=O)(O)CO[C@H](CO)Cn1ccc(N)nc1=O,HFF,AD169,>1 µM
C[C@@H]1O[C@@H](n2c(Cl)nc3cc(Cl)c(Cl)cc32)[C@H](O)[C@@H]1O,HFF,D10 (BDCRB- and maribavir-resistant),0.54 µM
OC[C@@H]1O[C@@H](n2c(Cl)nc3cc(Cl)c(Cl)cc32)[C@H](O)[C@@H]1O,HFF,D10 (BDCRB- and maribavir-resistant),56 µM
O[C@@H]1[C@H](O)[C@H](O)CO[C@H]1n1c(Br)nc2cc(Cl)c(Cl)cc21,MRC-5,1117/R (K513N),1.2 µM
CCCCCCCCCCCCCCCCOP1(=O)CO[C@@H](Cn2ccc(N)nc2=O)CO1,HFF,AD169,0.038 µM
Nc1nc2c(ncn2COC2COP(=O)(O)OC2)c(=O)[nH]1,MRC-5,DAVIS,6.1 µM
O=C(NCc1ccc(Cl)cc1)c1c[nH]c2c(F)cccc2c1=O,,LYS,12 µM